Test results: patent publication US20120135959A1, “Metalloprotein inhibitors containing nitrogen based ligands” (priority 2006, published 2012)

Amino acid sequences for entries named in this document (tags omitted). Residues count along the entry.
UniProt P15917, 34-809 limits assumed: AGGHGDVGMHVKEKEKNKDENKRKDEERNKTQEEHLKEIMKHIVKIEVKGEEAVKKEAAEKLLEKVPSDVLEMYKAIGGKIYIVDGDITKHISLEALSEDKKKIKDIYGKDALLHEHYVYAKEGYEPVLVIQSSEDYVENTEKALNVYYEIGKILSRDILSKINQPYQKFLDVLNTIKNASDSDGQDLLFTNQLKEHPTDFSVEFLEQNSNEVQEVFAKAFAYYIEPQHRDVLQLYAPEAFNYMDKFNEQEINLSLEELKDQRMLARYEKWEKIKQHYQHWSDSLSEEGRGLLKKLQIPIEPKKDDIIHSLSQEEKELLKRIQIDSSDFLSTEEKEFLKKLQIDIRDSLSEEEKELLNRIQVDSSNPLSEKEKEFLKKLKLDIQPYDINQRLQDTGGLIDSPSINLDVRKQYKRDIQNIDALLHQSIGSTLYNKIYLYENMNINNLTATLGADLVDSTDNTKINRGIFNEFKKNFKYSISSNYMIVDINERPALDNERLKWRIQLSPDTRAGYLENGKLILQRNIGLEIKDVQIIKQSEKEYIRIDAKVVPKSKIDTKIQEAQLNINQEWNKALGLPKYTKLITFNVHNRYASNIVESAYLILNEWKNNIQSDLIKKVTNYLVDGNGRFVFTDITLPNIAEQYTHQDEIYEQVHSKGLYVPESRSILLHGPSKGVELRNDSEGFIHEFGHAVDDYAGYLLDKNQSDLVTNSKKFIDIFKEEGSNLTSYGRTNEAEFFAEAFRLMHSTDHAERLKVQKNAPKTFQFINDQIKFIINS

Target: recombinant anthrax lethal factor (Bacillus anthracis, UniProt P15917)
Assay: Recombinant anthrax lethal factor fluorescence assay
Assay type: biochemical
Settings: read-out: LF IC50; fluorescence-based assay, LF 3 nM, 45 min preincubation at 25° C., pH 7.0; at least three independent experiments; spread in brackets

C1CNCCNCCCNCCNC1
IC50: 2920 µM
